Compound potency records, mixed from different reports. Data source: NIAID ChemDB in PubChem.

Common to all: growth or infection tests; organism: HIV-1

Conditions beyond the fields shown may differ between rows. ECn: concentration that inhibits the pathogen or its effect by n%. Blank or dashed fields: not listed here.

| SMILES | changes | setting | cell line | method | strain or isolate | measure | value |
|---|---|---|---|---|---|---|---|
| COc1ccc(C2CNC(=O)C2)cc1OC1CCCC1 |  |  | A3.5 | p24 | IIIB | EC50 | 30 µM |
| OCCN1CCN(CC/C=C2\c3ccccc3Sc3ccc(C(F)(F)F)cc32)CC1 |  |  | MOLT-3 | syncytia | IIIB | EC50 | >10 µg/mL |
| CCc1nccc2cc(O)c(O)cc12 |  |  | H9 | p24 | IIIB | EC50 | >2.08 µg/mL |
| O=C(N[C@H]1c2ccccc2OC[C@H]1O)[C@H](Cc1cccnc1)C[C@H](O)CN1CCN(Cc2ccn(-c3ccccc3Cl)c2)C[C@H]1C(=O)NCC(F)(F)F |  |  | MT-4 | p24 | NL4-3 WT | EC95 | ≤0.008 µM |
| C=C(c1ccc(OC)c(OC)c1)c1c2cc(OC)c(OC)cc2cc[n+]1C |  |  | H9 | p24 | IIIB | EC50 | >17.4 µg/mL |
| Cc1cccc(-n2ccc(CN3CCN(C[C@@H](O)C[C@@H](Cc4cccnc4)C(=O)N[C@H]4c5ccccc5OC[C@H]4O)[C@H](C(=O)NCC(F)(F)F)C3)c2)c1 | PR-L10I M36I N37D M46I R57K L63P A71V G73S I84V L90M I93L |  | MT-4 | p24 | V-18C Clinical isolate | EC95 | ≤0.008 µM |
| O=C(O)[C@@H](C1CCCCC1)N1C[C@H](CN2CCC(O)(CCCc3ccccc3)CC2)[C@@H](c2ccccc2)C1 |  |  | PBMC |  | BaL | EC50 | 0.187 µM |
| Cc1ccc(NC(=O)CSc2nnc(C)n2-c2ccc(C)c3ccccc23)c(Cl)c1 | RT-Y188L |  | HeLa + HeLa-JC53 | luciferase | NL4-3 | EC50 | 0.1 µM |
| O=C(N[C@@H](Cc1ccccc1)[C@@H](O)C[C@@H](Cc1ccccc1)C(=O)N[C@H]1c2ccccc2C[C@H]1O)OC1CCOC1 |  |  | MT-4 | p24 | IIIB | EC50 | <0.003 µM |
| Cc1cn([C@H]2C[C@H](N=[N+]=[N-])[C@@H](CO)O2)c(=O)[nH]c1=O | RT-M41L D67N K70R T215F K219Q |  | PBMC | p24 | G780-1 Clinical isolate ZDV-resistant | EC50 | >3.2 µM |
| O=C1O[C@H]2[C@@H]3OC(=O)c4cc(O)c(O)c(O)c4-c4c(cc(O)c(O)c4O)C(=O)OC[C@H]2O[C@@H](OC(=O)c2cc(O)c(O)c(O)c2)[C@@H]3OC(=O)c2cc(O)c(O)c3c2[C@@H]2C1=CC(=O)[C@](O)(O3)C2(O)O |  |  | MT-4 | p24 | HX10 | EC50 | 0.48 µM |
| CC(C)C1=C[C@H](c2ccccc2)CC[C@H]1O |  |  | Jurkat cells | p24 | IIIB | EC50 | <0.1 µM |
| CC[C@]1(CO)O[C@@H](n2cc(C)c(=O)[nH]c2=O)C[C@@H]1O |  |  | HeLa | β-galactosidase | HXB2 | EC50 | >100 µM |
| c1ccc(CNc2nc(-c3cccnc3)cs2)cc1 | 41-215 (AZT-resistant) |  | HeLa CD4 | β-galactosidase | NL4.3-XCS | EC50 | 0.533 µM |
| Cc1cn([C@H]2C[C@H](N=[N+]=[N-])[C@@H](COP(=O)(O)OC[C@H]3OC(O)[C@H](O)[C@@H](O)[C@@H]3O)O2)c(=O)[nH]c1=O |  | 22 d | CEM | RT activity | LAV-Bru | EC50 | <0.2 µM |
| CCCN(C)C(=O)Oc1nsnc1-c1c(Cl)cccc1Cl |  |  | PBMC | p24 | IIIB | EC50 | 0.0048 µM |
| COC(=O)[C@H](CO)NC(=O)[C@H](CO)NC(=O)COc1ccc2ccccc2c1 |  |  | MT-4 | cytopathic effect / MTT | IIIB | EC50 | >100 µg/mL |
| Cc1ccnc2c1NC(=O)c1cccnc1N2C1CC1 |  |  | MT-4 | MTT | IIIB | EC50 | 0.18 µM |
| COC(=O)[C@H](C)NC(=O)CNC(=O)COc1ccc2ccccc2c1 |  |  | MT-4 | cytopathic effect / MTT | IIIB | EC50 | >59 µg/mL |
| CN(C)C(=O)Oc1nsnc1-c1c(Cl)cccc1Cl |  |  | MT-4 | cytopathic effect | IIIB | EC50 | 0.205 µM |
| CC(=O)SCCOP(=O)(OCCSC(C)=O)OC[C@@H]1CC[C@H](n2cnc3c(=O)[nH]cnc32)O1 |  |  | MT-4 | cytopathic effect | IIIB | EC50 | 3.4 µM |
| CCCN(C)C(=O)Oc1nsnc1-c1c(Cl)ccc(N)c1Cl |  |  | MT-4 | p24 | IIIB MKC-442-resistant | EC50 | 0.765 µM |
| O=c1[nH]cnc2c1ncn2[C@H]1CC[C@@H](CO)O1 |  |  | PBL | p24 | BaL | EC50 | 3.7 µM |
| O=c1[nH]cnc2c1ncn2[C@H]1CC[C@@H](CO)O1 |  |  | C8166 | p24 | RF | EC50 | 0.9 µM |
| CSCc1nnc(SCC(=O)Nc2ccc(C)cc2Br)n1-c1ccc(C)cc1 | RT-K103N Y181C |  | HeLa + HeLa-JC53 | luciferase | NL4-3 | EC50 | >10 µM |
| Nc1ccn([C@H]2C[C@H](O)[C@](CO)(CF)O2)c(=O)n1 | RT-M41L T215Y |  | HeLa | β-galactosidase | RT-M41L/T215Y | EC50 | 0.0035 µM |
| COC(=O)[C@H](CCSC)NC(=O)COc1ccc2ccc(O[C@H]3O[C@H](C4COC(C)(C)O4)[C@@H]4OC(C)(C)O[C@H]34)cc2c1 |  |  | MT-4 | cytopathic effect / MTT | IIIB | EC50 | >32 µg/mL |
| NC(=O)c1ncn([C@@H]2O[C@H](CO)[C@@H](O)[C@H]2O)n1 |  |  | MT-4 | cytopathic effect / trypan blue |  | EC50 | >20 µM |
| Cc1cc(C)c2ccccc2c1-n1c(C)nnc1SCC(=O)Nc1ccc(S(N)(=O)=O)cc1Cl | RT-Y188L |  | HeLa + HeLa-JC53 | luciferase | NL4-3 | EC50 | 0.004 µM |
| CCN(CC)C(=O)/C=C/CSc1nc(N)cc(Cl)n1 |  |  | MT-4 | p24 | RT-WT | EC50 | <0.02 µM |
| Cc1cn([C@H]2C[C@H](N=[N+]=[N-])[C@@H](CO)O2)c(=O)[nH]c1=O | 188L-190A (nevirapine-resistant) |  | HeLa CD4 | β-galactosidase | NL4.3-XCS | EC50 | 0.113 µM |
| COc1ccc(Cc2c3ccc(OC)c(OC)c3cc[n+]2C)cc1OC |  |  | H9 | p24 | IIIB | EC50 | >100 µg/mL |
| Cc1ccnc2c1NC(=O)c1cccnc1N2C1CC1 | RT-K70R |  | MT-4 |  |  | EC50 | <0.4 µM |
| COc1ccc(OC[C@@H]2CNCC[C@H]2c2ccccc2)cc1 |  |  | MOLT-3 | syncytia | IIIB | EC50 | >4 µg/mL |
| Cc1ccc(C(=O)Nc2ccc(S(=O)(=O)O)c3cc(S(=O)(=O)O)cc(S(=O)(=O)O)c23)cc1NC(=O)c1cccc(NC(=O)Nc2cccc(C(=O)Nc3cc(C(=O)Nc4ccc(S(=O)(=O)O)c5cc(S(=O)(=O)O)cc(S(=O)(=O)O)c45)ccc3C)c2)c1 |  |  | MT-4 | cytopathic effect / trypan blue |  | EC50 | 32 µM |
| COc1ccc(-n2c(C)nnc2SCC(=O)Nc2ccccc2Br)c2ccccc12 | RT-Y188L |  | HeLa + HeLa-JC53 | luciferase | NL4-3 | EC50 | 0.46 µM |
| C=C(/C=C/P(=O)(O)O)CCn1cnc2c(=O)[nH]c(N)nc21 |  |  | MT-4 | cytopathic effect / MTT | RF | EC50 | 49 µM |
| O=C(O)[C@@H](C1CCCCC1)N1C[C@H](CN2CCC(CCCc3ccccc3)CC2)[C@@H](c2ccccc2)C1 |  |  | PBMC |  | BaL | EC95 | 0.077 µM |
| COC(=O)[C@H](C)NP(=O)(OC[C@@H]1C=C[C@H](n2cc(C)c(=O)[nH]c2=O)O1)Oc1ccc(Br)cc1 | RT-M42L M184V T215Y |  | PBMC | p24 | C140 Clinical isolate ZDV-resistant | EC50 | 0.0025 µM |
| CN(C)CCC=C1c2ccccc2CCc2ccccc21 |  |  | MOLT-3 | RT activity | IIIB | EC50 | >10 µg/mL |
| CCCCCC1NCCc2cc(O)c(O)cc21 |  |  | H9 | p24 | IIIB | EC50 | >21.6 µg/mL |
| COc1ccc(NC(=O)CSc2nnnn2-c2c(C)cc(C)cc2C)cc1Cl | 41-215 (AZT-resistant) |  | HeLa CD4 | β-galactosidase | NL4.3-XCS | EC50 | 0.331 µM |
| O=c1[nH]cnc2c1ncn2[C@H]1CC[C@@H](CO)O1 | RT M41L T69SSG insertion T215Y |  | HeLa | β-galactosidase | RT-M41L T69SSG T215Y | EC50 | 12.2 µM |
| Cc1cn([C@H]2C[C@H](N=[N+]=[N-])[C@@H](CO)O2)c(=O)[nH]c1=O |  |  | MT-4 | cytopathic effect / trypan blue |  | EC50 | 0.004 µM |
| Cc1ccc(NC(=O)CSc2nnc(C)n2-c2ccccc2)c(Br)c1 | RT-Y188L |  | HeLa + HeLa-JC53 | luciferase | NL4-3 | EC50 | >10 µM |
| C#C[C@]1(CO)O[C@@H](n2cc(C)c(=O)[nH]c2=O)C[C@@H]1O | RT-L74V |  | HeLa | β-galactosidase |  | EC50 | 0.68 µM |
| COC(=O)[C@H](CCSC)NC(=O)[C@H](C)NC(=O)COc1ccc2ccccc2c1 |  |  | MT-4 | cytopathic effect / MTT | IIIB | EC50 | >48 µg/mL |
| Nc1ccn([C@H]2CC[C@@H](CO)O2)c(=O)n1 |  |  | MT-4 | MTT | IIIB | EC50 | 1.4 µM |
| CC(=O)c1ccc(C)cc1NC(C(N)=O)c1c(Cl)cccc1Cl |  |  | MOLT-4 | cytopathic effect / MTT | IIIB | EC50 | 0.028 µM |
| Nc1ncnc2c1ncn2[C@H]1C=C[C@@H](OCP(=O)(O)O)C12CC2 |  |  |  |  | WILD TYPE | EC50 | 19.1 µM |
| Cc1cn([C@H]2C[C@H](N=[N+]=[N-])[C@@H](CO)O2)c(=O)[nH]c1=O |  | 14 d | U-937 | RT activity | LAV-Bru | EC50 | >25 µM |
| O=C(O)c1cn(CCO)c2ccc(Cc3ccccc3)cc2c1=O |  |  | MT-4 | MTT | IIIB | EC50 | 3.1 µM |
| CN(C)C(=O)/C=C/CSc1nc(N)cc(Cl)n1 |  |  | MT-4 | p24 | MF (DLV-resistant) | EC50 | <0.74 µM |
| CC(C)C1NCCc2cc(O)c(O)cc21 |  |  | H9 | p24 | IIIB | EC50 | 3.21 µg/mL |
| CN1CC[C@H](c2ccccc2)[C@@H](COc2ccc3c(c2)OCCO3)C1 |  |  | MOLT-3 | syncytia | IIIB | EC50 | >4 µg/mL |
| O=C([O-])c1c[nH]c2ccc(Cc3ccccc3)cc2c1=O.O=C([O-])c1c[nH]c2ccc(Cc3ccccc3)cc2c1=O.[Mg+2] |  |  | MT-4 | MTT | IIIB | EC50 | >17 µM |
| C#C[C@]1(CO)O[C@@H](n2cc(I)c(=O)[nH]c2=O)C[C@@H]1O |  |  | MT-4 | cytopathic effect / MTT | LAI | EC50 | 0.29 µM |
| CC(=O)N(O)CCCCCNC(=O)CCC(=O)N(O)CCCCCNC(=O)CCC(=O)N(O)CCCCCN |  |  | PBL | p24 | BaL | EC50 | <10 µM |
| Cc1cn([C@H]2C[C@H](N=[N+]=[N-])[C@@H](CO)O2)c(=O)[nH]c1=O |  |  | MT-4 | cytopathic effect | IIIB | EC50 | 0.018 µM |
| OCCN1CCN(CC/C=C2/c3ccccc3Sc3ccc(C(F)(F)F)cc32)CC1 |  |  | MOLT-3 | RT activity | IIIB | EC50 | <2 µg/mL |
| Cc1ccc(NC(=O)CSc2nnc(C)n2-c2c(C)ccc3ccccc23)c(Cl)c1 | RT-K103N Y181C |  | HeLa + HeLa-JC53 | luciferase | NL4-3 | EC50 | 0.06 µM |
| C/C1=C\C=C(\C(C)C)[C@@H](O)C/C(C)=C/CC/C(C)=C/CC1 |  |  | Jurkat cells | p24 | IIIB | EC50 | >0.1 µM |
| COC(=O)[C@H](CO[C@H]1O[C@H](C2COC(C)(C)O2)[C@@H]2OC(C)(C)O[C@H]12)NC(=O)[C@H](CCSC)NC(=O)COc1ccc2ccccc2c1 |  |  | MT-4 | cytopathic effect / MTT | IIIB | EC50 | >75 µg/mL |
| COc1ccc(OC[C@H]2CNCC[C@@H]2c2ccc(F)cc2)cc1 |  |  | MOLT-3 | syncytia | IIIB | EC50 | >4 µg/mL |
| COC(=O)[C@H](CC(C)C)NC(=O)CNC(=O)COc1ccc2ccccc2c1 |  |  | MT-4 | cytopathic effect / MTT | IIIB | EC50 | >16 µg/mL |
| Nc1ncnc2c1ncn2[C@H]1CC[C@@H](CO)O1 |  |  | MT-4 | cytopathic effect / trypan blue |  | EC50 | 9.2 µM |
| Nc1cc(Cl)nc(SCc2ccc3ccccc3c2)n1 |  |  | MT-4 | p24 | RT-WT | EC50 | <0.22 µM |
| CCCCCCCCCCCCCCCCOP(=O)(OC[C@H]1OC(O)[C@H](O)[C@@H](O)[C@@H]1O)OC[C@H]1O[C@@H](n2cc(C)c(=O)[nH]c2=O)C[C@@H]1N=[N+]=[N-] |  | 7 d | PBL | RT activity | LAV-Bru | EC50 | <1 µM |
| O=C(N[C@H]1c2ccccc2OC[C@H]1O)[C@H](Cc1cccnc1)C[C@H](O)CN1CCN(Cc2ccn(-c3ccc(F)c(F)c3F)c2)C[C@H]1C(=O)NCC(F)(F)F | PR-L10I N37S R41K M46I I54V I62V L63P A71V V77I V82A L90M I93L |  | MT-4 | p24 | Q-60C Clinical isolate | EC95 | ≤0.008 µM |

For reference, 7 entries again:

SMILES,changes,setting,cell line,method,strain or isolate,measure,value
Cc1cn([C@H]2C[C@H](N=[N+]=[N-])[C@@H](CO)O2)c(=O)[nH]c1=O,,,MT-4,cytopathic effect / trypan blue,,EC50,0.004 µM
Cc1ccnc2c1NC(=O)c1cccnc1N2C1CC1,,,MT-4,MTT,IIIB,EC50,0.18 µM
CC[C@]1(CO)O[C@@H](n2cc(C)c(=O)[nH]c2=O)C[C@@H]1O,,,HeLa,β-galactosidase,HXB2,EC50,>100 µM
Nc1ccn([C@H]2C[C@H](O)[C@](CO)(CF)O2)c(=O)n1,RT-M41L T215Y,,HeLa,β-galactosidase,RT-M41L/T215Y,EC50,0.0035 µM
COC(=O)[C@H](C)NC(=O)CNC(=O)COc1ccc2ccccc2c1,,,MT-4,cytopathic effect / MTT,IIIB,EC50,>59 µg/mL
COC(=O)[C@H](C)NP(=O)(OC[C@@H]1C=C[C@H](n2cc(C)c(=O)[nH]c2=O)O1)Oc1ccc(Br)cc1,RT-M42L M184V T215Y,,PBMC,p24,C140 Clinical isolate ZDV-resistant,EC50,0.0025 µM
C#C[C@]1(CO)O[C@@H](n2cc(I)c(=O)[nH]c2=O)C[C@@H]1O,,,MT-4,cytopathic effect / MTT,LAI,EC50,0.29 µM